Reference: PubChem BioAssay AID841 (Emory University Molecular Libraries Screening Center, 2007)
This is a selection; strong and weak results do not stand in their true shares. Calls of active or inactive are those of the source. Cut-off read from the data, not from the text of the source: active = protection mostly above about 24% (no sharp cut-off); inactive = mostly below about 26%.

Test: compounds protecting cells from measles virus cytopathic effect, primary screen, measles RdRp inhibitor project, single point, MLSMR library, absorbance (AID 841)
Details: Measles virus-infected cells, CPE protection, at 4 µM, hits give high values

Structure (SMILES) | protection (pct of control)
CP(=O)(Nc1ccc(SC(F)(F)F)cc1)Oc1ccccc1 (stereo unspecified) | inactive: 5.06%
COc1ccccc1OP(C)(=O)Nc1c(C)cccc1C (stereo unspecified) | inactive: 15.5%
CN1CCCCC1COC(=O)C1(O)c2ccccc2CCc2ccccc21 (stereo unspecified) | inactive: 10.8%
CC1=NCCc2c1[nH]c1ccccc21.O=[N+]([O-])c1cc([N+](=O)[O-])c(O)c([N+](=O)[O-])c1 | inactive: 16.6%
Cc1cc(C)cc(OP(C)(=O)Nc2ccc(C)cc2C)c1 (stereo unspecified) | inactive: 3.64%
CCOC(=O)c1ccc(NP(C)(=O)Oc2cc(C)cc(C)c2)cc1 (stereo unspecified) | inactive: 5.9%
Cc1cc(C)cc(OP(C)(=O)Nc2ccccn2)c1 (stereo unspecified) | inactive: 2.34%
Cc1ccc(C)c(NP(C)(=O)Oc2ccccc2)c1 (stereo unspecified) | inactive: 3.5%
CC(C)(C)c1ccc(OP(C)(=O)Nc2ccc(SC(F)(F)F)cc2)cc1 (stereo unspecified) | inactive: 2.64%
COc1ccc(OP(C)(=O)Nc2cccc(F)c2)cc1 (stereo unspecified) | inactive: 3.11%
CCOC(=O)c1ccc(NP(C)(=O)Oc2ccccc2)cc1 (stereo unspecified) | inactive: 12.3%
COc1ccccc1OP(C)(=O)Nc1ccc(C)cc1 (stereo unspecified) | inactive: 10.9%
Cc1ccc(NP(C)(=O)Oc2ccccc2)c(C)c1 (stereo unspecified) | inactive: 27.6%
CP(=O)(Nc1ccccc1Br)Oc1ccccc1 (stereo unspecified) | inactive: 5.37%
CP(=S)(Nn1cnnc1)Oc1ccccc1 (stereo unspecified) | inactive: 6.41%
CP(=O)(NC(=O)Nc1ccccc1)Oc1ccccc1 (stereo unspecified) | inactive: 11.4%
Cc1cc(C)cc(OP(C)(=O)Nc2ccc(SC(F)(F)F)cc2)c1 (stereo unspecified) | inactive: 8.34%
Cc1cccc(C)c1OP(C)(=O)Nc1ccc(SC(F)(F)F)cc1 (stereo unspecified) | inactive: 6.53%
CP(=O)(Nc1ccccn1)Oc1ccc(Cl)cc1 (stereo unspecified) | inactive: 8.9%
CCOP(C)(=S)SCC(=O)NC(C)C(=O)O (stereo unspecified) | inactive: 29.4%
CCOC(=O)c1ccc(NP(C)(=O)Oc2ccc(OC)cc2)cc1 (stereo unspecified) | inactive: 8.85%
